“Also recorded” adds a separate entry of the source.
Tested on: HIV-1
Experiment: HIV-1 acute infection in vitro (p24 antigen)
Type: cell-based
Settings: p24 antigen days 3 to 10; peptides 0.05 to 50 nmoles/ml, hCG 0.01 to 1,000 IU, native β-hCG 100 to 1,000 μg
Procedure: Sequences of the peptides are as follows:
HIV-1 infected cells were treated with the above preparations and the virus was measured.

recombinant α-chain: purified recombinant α-chain of hCG [reference compound]
inhibition of HIV-1 infection/replication in acutely infected cells: little or no inhibition; also recorded: inactive
